# Primary screen of a compound library

Source: ChEMBL document CHEMBL3988442, “University of Dundee, Small-Polar-MMV Screening Library” (2021).

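Growth of Mycobacterium tuberculosis over 4 days (cholesterol / DPPC medium with tyloxapol); the read-out is not stated. Concentration: 500 µM. Higher reads as more growth inhibition (inferred: compounds with an IC50 in retests scored well above the rest). About 18,000 compounds were tested under these conditions; 5% (about 900) showed 50% or more at least once.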

The filed quantity is “Percent Effect” (%). The controls that fix the scale are not given in the record; negative values are as filed. The entries come from a sample that favours strong results.

SMILES	effect
COC(=O)CSc1nnc(C(F)(F)F)n1C	-9.671
NC(=O)C1(NCCSCc2ccccc2)CC1	-18.09
CNC(=O)C(C)NS(=O)(=O)c1ccc(OC)c(Cl)c1 (stereo not shown)	15.03
COCCN1CCC(CNc2cccc(C)n2)C1 (stereo not shown)	13.73
OC[C@@H]1CCCN1Cc1ccc(F)c2cccnc12	1.681
COCCOc1ccc(C(=O)NCc2ccco2)cc1	64.14
COc1ccc(C2CCCN2CC(=O)NC(N)=O)cc1 (stereo not shown)	-3.096
CCCC1C(=O)NCCN1C(=O)c1ccc(Br)c(O)c1 (stereo not shown)	-4.697
CC1CN(C)c2ccccc2CN1C(=O)c1cc[nH]n1 (stereo not shown)	7.376
CCCn1nnc(NCc2ccc(OC)cc2)n1	76.83
Cc1nnc(CN(C)C(=O)CN(C)C2CCCC2)o1	-0.2334
CC(C)C(CN)N1CCCC1 (stereo not shown)	-11.42
COCCNC(=O)c1csc(-c2ccco2)n1	7.675
CCc1n[nH]c(SCC(=O)Nc2ccc(Br)cn2)n1	75.71
COc1cc(OC)cc(C(=O)NCC(C)CN(C)C)c1 (stereo not shown)	5.274
O=C(Nc1ccnc(CO)c1)c1ccc(F)cc1I	87.16
O=C(NC1CCS(=O)(=O)C1)N1CCc2ccccc2C1 (stereo not shown)	2.901
Cc1cc(NC(=O)COc2ccc3c(c2)OCO3)no1	-14.8
CC(C)C(=O)NCc1cn2ccccc2n1	-0.9389
COc1ccc(C(=O)NC2=NCCS2)cn1	19.51
O=C(CCc1ccncc1)N1CCCCC1	21.28
CCN(C)CCNC(=O)c1cc(-c2ccccc2)[nH]n1	-7.72
CN(C)C(=O)CN1C=Nc2ccccc2S1(=O)=O	-4.69
CCS(=O)(=O)N1CCN(C(=O)c2ccccc2O)CC1	-7.644
C=C(C)COCCNC(=O)c1c(O)cccc1F	40.82
NC1CCCN(S(=O)(=O)C=Cc2cccc(Cl)c2)C1 (stereo not shown)	70.48
CCCSCC(=O)NCc1nc(-c2ccncc2)n[nH]1	-3.13
CCCn1ccnc1CCCNC	7.761
O=C(NCCCn1ncc2ccccc21)C1CC1	60.62
NC(=O)Cn1cc(N)cn1	17.49
COC(=O)CNC(=O)c1ccc(C)c(-n2cccc2)c1	39.11
CC1CN(C)CCN1CC(=O)NCc1cccs1 (stereo not shown)	8.815
O=C(NCC1CCCO1)c1cc(-c2cccs2)on1 (stereo not shown)	71.91
CCN(CC)C(=O)CNc1ccc(Cl)c(C#N)n1	-11.23
CCN1CCC(CNC(=O)c2ccncc2F)C1 (stereo not shown)	10.01
CCOC(=O)COc1ccc(C(N)=O)cc1	-21.61
NC(=O)N1CCCC(C(=O)Nc2cc(Br)ccc2F)C1 (stereo not shown)	31.38
CC(C)CS(=O)(=O)N1CCC(N)CC1	9.974
N#Cc1nc(NCCSCCCO)ccc1Cl	82.95
c1ccc2[nH]c(N3CCNCC3)nc2c1	18.91
CC(c1nc(C2CC2)no1)N1CCn2ccnc2C1 (stereo not shown)	8.326
CCn1cc(N)cn1	19.66
NCc1nc(-c2ccccn2)no1	7.314
CN1CCC(CNC(=O)c2ccccc2F)CC1	-1.563
c1cn(C2CCNCC2)nn1	56.79
CCNC(=O)CC1CCCCN1CCOC (stereo not shown)	7.165
O=C(NCCc1ccc(F)c(F)c1)N1CCCC(O)C1 (stereo not shown)	19.11
CN(C(=O)C(CN)c1ccccc1)c1cccc(F)c1 (stereo not shown)	0.07145
Cc1ccc2c(c1)nc(CCN)n2C	15.18
O=C(c1ccc(Cl)s1)N1CCN(c2nc[nH]n2)CC1	25.97
CN(C)C(=O)CN(C)C(=O)COc1ccc(Cl)cc1Cl	-7.947
CCC(SC)C(=O)NCc1nnc(C)n1C1CC1 (stereo not shown)	-3.661
O=C(NCCN1CCCC1)c1ccc2ccccc2n1	51.07
NC1CC(=O)N(CCc2ccccc2)C1 (stereo not shown)	-8.846
CCc1cc(C(=O)NCCS(=O)(=O)N(C)C)cs1	34.92
COCC(NC(=O)c1c(C)cc(C)cc1C)C(N)=O (stereo not shown)	-4.604
CCC(O)CN1CCN(c2ncccc2Br)CC1 (stereo not shown)	51.77
CC(C)(CC(N)=O)NCc1nc(-c2ccccc2)no1	18.64
CCOc1cccc(CNc2nc(N(C)C)n[nH]2)c1	88.04
NC(CC(=O)N1CCOCC1)c1ccccc1 (stereo not shown)	-3.675
O=S(=O)(CCN1CCCCC1)c1ccccc1	35.1
COCCNC(=O)Nc1ccc2c(c1)OC(C)(C)O2	61.95
CCc1ccc(CN2CC(N3CCOCC3)C2)o1	87.92
c1cc2c(cc1C1=NN=C(NC3CC3)SC1)OCCO2	80.64
CCS(=O)(=O)N(C)CCCNc1ccc(C)c(C#N)n1	64.2
COC(=O)c1n[nH]c2ccc(NC(=O)C(C)C)cc12	1.823
O=C(CC1(O)CCCCC1)NCC(O)c1ccsc1 (stereo not shown)	22.48
NC(=O)NC1CCN(C(=O)Cc2ccc(Br)cc2)CC1	-13.37

Once more, the final 6:

- CCc1ccc(CN2CC(N3CCOCC3)C2)o1 : 87.92%
- c1cc2c(cc1C1=NN=C(NC3CC3)SC1)OCCO2 : 80.64%
- CCS(=O)(=O)N(C)CCCNc1ccc(C)c(C#N)n1 : 64.2%
- COC(=O)c1n[nH]c2ccc(NC(=O)C(C)C)cc12 : 1.823%
- O=C(CC1(O)CCCCC1)NCC(O)c1ccsc1 (stereo not shown) : 22.48%
- NC(=O)NC1CCN(C(=O)Cc2ccc(Br)cc2)CC1 : -13.37%